Experimental data: PubChem BioAssay AID1224833 (University of Georgia, 2016)

- Purpose: 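Human genes whose knock-down alters rotavirus replication in monkey cells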 (primary screen)
- Cells: monkey MA104 kidney cells
- Reagents: siRNA pool against human genes, 50 nM
- Time to read-out: 48 h knock-down before infection; read 24 h after infection
- Challenge: infection with rotavirus strain RV3 two days after transfection; infectious dose for this stage not given
- Detection: 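z-score of rotavirus antigen signal per well, from a fluorescent immunoassay, relative to non-targeting control wells on the same plate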
- Scale: z-score vs non-targeting control: higher = more rotavirus replication than with non-targeting control
- Hit rule: In these data the active calls have z-score vs non-targeting control at about -1 or lower, or at about 1 or higher
- Meaning of the calls: active = z-score beyond 1 either way; inactive = z-score within 1 of zero
The deposit covers about 12,000 reagents; shown is an unselected part. About 5,600 of them (46%) count as active. 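Active calls cover z-scores past 1 in both directions, so they include lowered as well as raised rotavirus replication.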 Unmarked entries are inactive.

no.	target gene	z-score vs non-targeting control
1	LPP (GeneID 4026)	0.367
2	RBP4 (GeneID 5950)	-0.942
3	SMARCA5 (GeneID 8467)	-0.641
4	SHLD1 (GeneID 149840)	1.37 (active)
5	CSMD2 (GeneID 114784)	-0.959
6	ZSWIM8 (GeneID 23053)	-2.35 (active)
7	LRRC18 (GeneID 474354)	-0.538
8	HOMER2 (GeneID 9455)	0.0738
9	GSAP (GeneID 54103)	1.08 (active)
10	SIKE1 (GeneID 80143)	1.19 (active)
11	RHPN2 (GeneID 85415)	0.0343
12	FUT9 (GeneID 10690)	-0.678
13	MLH3 (GeneID 27030)	-1.37 (active)
14	WDR70 (GeneID 55100)	1.13 (active)
15	YOD1 (GeneID 55432)	1.29 (active)
16	CPXM1 (GeneID 56265)	0.81
17	THOC7 (GeneID 80145)	-1.23 (active)
18	SCARF2 (GeneID 91179)	-2.11 (active)
19	ZNF324B (GeneID 388569)	0.465
20	SUSD4 (GeneID 55061)	0.649
21	ABTB3 (GeneID 121551)	-0.479
22	TPP1 (GeneID 1200)	-0.788
23	PSMF1 (GeneID 9491)	-0.121
24	ALLC (GeneID 55821)	-0.648
25	ATG2B (GeneID 55102)	-0.335
26	HDHD3 (GeneID 81932)	0.794
27	CD63 (GeneID 967)	-0.368
28	CCDC22 (GeneID 28952)	0.363
29	OR2W5 (GeneID 441932)	-0.47
30	EIF6 (GeneID 3692)	0.82
31	NUDT18 (GeneID 79873)	-2.48 (active)
32	BBS12 (GeneID 166379)	-1.89 (active)
33	NAP1L2 (GeneID 4674)	0.633
34	ABCC10 (GeneID 89845)	-0.727
35	CCL3 (GeneID 6348)	0.54
36	OARD1 (GeneID 221443)	-1.98 (active)
37	TSPAN12 (GeneID 23554)	0.127
38	CAT (GeneID 847)	0.715
39	PLAG1 (GeneID 5324)	-1.73 (active)
40	MBNL3 (GeneID 55796)	-0.23
41	OR6C68 (GeneID 403284)	-0.417
42	KRT74 (GeneID 121391)	-0.169
43	IGF1 (GeneID 3479)	-1.58 (active)
44	PHLDA1 (GeneID 22822)	-0.871
45	RGL1 (GeneID 23179)	-1.95 (active)
46	TARS3 (GeneID 123283)	-0.727
47	GNPAT (GeneID 8443)	-1.47 (active)
48	TBC1D20 (GeneID 128637)	-0.197
49	DSE (GeneID 29940)	0.508
50	PSORS1C2 (GeneID 170680)	-2.79 (active)
51	ZFYVE28 (GeneID 57732)	-1.43 (active)
52	ZCWPW1 (GeneID 55063)	-0.184
53	KCTD8 (GeneID 386617)	-0.0027
54	ACSS1 (GeneID 84532)	-1.66 (active)
55	FCN3 (GeneID 8547)	-0.39
56	TIMM10 (GeneID 26519)	0.944
57	HTR1B (GeneID 3351)	-0.528
58	ZCCHC7 (GeneID 84186)	2.37 (active)
59	OR2L8 (GeneID 391190)	-0.483
60	LHFPL1 (GeneID 340596)	-2.33 (active)
61	TIMM21 (GeneID 29090)	-0.615
62	ZNF10 (GeneID 7556)	1.12 (active)
63	ACAT2 (GeneID 39)	-1.43 (active)
64	ZFYVE27 (GeneID 118813)	-1.07 (active)
65	GOLGA7B (GeneID 401647)	1.61 (active)
66	ZNF670 (GeneID 93474)	1.24 (active)
67	KBTBD11 (GeneID 9920)	2.52 (active)
68	SPG7 (GeneID 6687)	1.09 (active)
69	FGD2 (GeneID 221472)	-0.856
70	DDX19B (GeneID 11269)	-0.811
71	TAS2R13 (GeneID 50838)	0.143
72	ADCY8 (GeneID 114)	-0.663
73	OR5K2 (GeneID 402135)	-0.312
74	SSBP3 (GeneID 23648)	-0.181
75	TLX1NB (GeneID 100038246)	0.964

Targets above whose target name starts with H or h (3):
target gene	z-score vs non-targeting control
HOMER2 (GeneID 9455)	0.0738
HDHD3 (GeneID 81932)	0.794
HTR1B (GeneID 3351)	-0.528
